Pooled drug test results. Numbers come from NIAID ChemDB, via PubChem.

Common to all: growth or infection tests; organism: HIV-1; cell line: MT-2; endpoint: EC50

Lines come from different laboratories, so protocols vary. Blank or dashed fields: not listed here. ECn is the concentration giving n% inhibition of infection, replication or growth.

CC(C)CN(C[C@@H](O)[C@H](Cc1ccccc1)NC(=O)O[C@H]1CCOC1)S(=O)(=O)c1ccc(N)cc1 ; strain: NL4-3 Gag L75 H219 V390 WT ; read by: cytopathic effect / MTT ; result: >2.5 µM
CC(C)[C@H](NC(=O)OCc1ccccc1)C(=O)N[C@@H](Cc1ccccc1)[C@@H](O)[C@H](O)[C@H](Cc1ccccc1)NC(=O)[C@@H](NC(=O)OCc1ccccc1)C(C)C ; strain: RF ; result: <0.195 µM
COC(=O)N[C@H](C(=O)N[C@@H](Cc1ccccc1)[C@@H](O)CN(Cc1ccc(-c2ccccn2)cc1)NC(=O)[C@@H](NC(=O)OC)C(C)(C)C)C(C)(C)C ; strain: MN ; result: <0.003 µM
O=C(/C=C/C=C/c1ccc([N+](=O)[O-])cc1)[Se]c1ccccc1 ; strain: LAI ; read by: MTT ; result: 6.7 µM
COc1ccc(-n2cnc(C)n2)c2[nH]cc(C(=O)C(=O)N3CCN(C4=Nc5ccccc5Oc5ccc(Cl)cc54)CC3)c12 ; strain: LAI ; read by: luciferase / reporter gene / single cycle ; result: 0.00183 µM
CC(C)CN(C[C@@H](O)[C@H](Cc1ccccc1)NC(=O)O[C@H]1[C@H]2CCCO[C@H]2O[C@@H]1C)S(=O)(=O)c1ccc(N)cc1 ; strain: LAI ; read by: cytopathic effect / MTT ; result: 0.03 µM
O=C(/C=C/c1ccc(O)c(O)c1)O[C@@H]1CC(O)(C(=O)O)C[C@@H](OC(=O)/C=C/c2ccc(O)c(O)c2)C1O ; result: 1.9 µM
Nc1nc2cc(CN3C(=O)N(Cc4ccc5sc(N)nc5c4)[C@H](Cc4ccccc4)[C@H](O)[C@@H](O)[C@H]3Cc3ccccc3)ccc2s1 ; strain: RF ; result: <0.95 µM
COC(=O)N[C@H](C(=O)N[C@@H](Cc1ccccc1)[C@@H](O)CN(Cc1ccc(-c2ccccn2)cc1)NC(=O)[C@@H](NC(=O)OC)C(C)(C)C)C(C)(C)C ; strain: IIIB ; changes: R41K ; read by: p24 / ELISA ; result: 0.0008 µM
CCCCCCCCCCCCCCCCCCOC[C@@H](O)COP(=O)(O)C(=O)O ; strain: LAI ; read by: p24 ; result: 1.4 µM
COc1ccc(-n2cncn2)c2[nH]cc(C(=O)C(=O)N3CCN(C4=Nc5ccccc5Oc5ccc(Cl)cc54)CC3)c12 ; strain: LAI ; read by: luciferase / reporter gene / single cycle ; result: <0.5 µM
CCCCCCCCCCCCCCCCCCOC[C@H](COP(=O)(O)C(=O)O)OCC ; strain: LAI ; read by: p24 ; result: 0.39 µM
Nc1ccn(C[C@@H](CO)OCP(=O)(O)O)c(=O)n1 ; strain: IIIB ; read by: cytopathic effect ; result: 1 µM
Cc1cn([C@H]2C[C@H](N=[N+]=[N-])[C@@H](CO)O2)c(=O)[nH]c1=O ; strain: IIIB ; read by: cytopathic effect / trypan blue ; result: <2 µM
O=C(O)c1cc(O)cc(O)c1N=Nc1ccc(/C=C/c2ccc(N=Nc3c(O)cc(O)cc3C(=O)O)cc2S(=O)(=O)O)c(S(=O)(=O)O)c1 ; strain: IIIB ; read by: cytopathic effect / XTT ; result: 14.5 µg/mL
Cc1cn([C@H]2C[C@H](N=[N+]=[N-])[C@@H](CO)O2)c(=O)[nH]c1=O ; strain: IIIB ; read by: cytopathic effect / XTT ; result: 0.04 µM
Cc1cn([C@H]2C[C@H](N=[N+]=[N-])[C@@H](CO)O2)c(=O)[nH]c1=O ; strain: IIIB ; read by: p24 ; result: 0.008 µg/mL
Cc1cn([C@H]2C[C@H](N=[N+]=[N-])[C@@H](CO)O2)c(=O)[nH]c1=O ; strain: IIIB ; changes: D437N ; read by: p24 / ELISA ; result: 0.153 µM
O=C(C(=O)N1CCN(C2=Nc3ccccc3Oc3ccc(Cl)cc32)CC1)c1c[nH]c2ccccc12 ; strain: LAI ; read by: luciferase / reporter gene / single cycle ; result: 0.7056 µM
Cc1cn([C@H]2C[C@H](N=[N+]=[N-])[C@@H](CO)O2)c(=O)[nH]c1=O ; strain: IIIB ; read by: RT activity ; result: 0.06 µM
O=C1N(Cc2ccc3nc[nH]c3c2)[C@H](Cc2ccccc2)[C@H](O)[C@@H](O)[C@@H](Cc2ccccc2)N1Cc1ccc2nc[nH]c2c1 ; strain: RF ; result: <19 µM
Cc1cn([C@H]2C[C@H](N=[N+]=[N-])[C@@H](COC(=O)c3ccncc3)O2)c(=O)[nH]c1=O ; strain: IIIB ; read by: p24 ; result: 0.075 µM
CCCCCCCCCCCCCCCCCCOC[C@H](CO)OC ; strain: LAI ; read by: p24 ; result: 63 µM
O=C1N(Cc2ccc3cn[nH]c3c2)[C@H](Cc2ccccc2)[C@H](O)[C@@H](O)[C@@H](Cc2ccccc2)N1Cc1ccc2cn[nH]c2c1 ; strain: RF ; result: <0.049 µM
Cc1nnc(C(C)C)n1C1C[C@H]2CC[C@@H](C1)N2CC[C@H](NC(=O)C1CCC(F)(F)CC1)c1ccccc1 ; read by: p24 / ELISA ; result: 0.017 µM
O=C(/C=C/c1ccc(O)cc1)[Se]c1ccccc1 ; strain: LAI ; read by: MTT ; result: 4.5 µM
Cc1cc(C#N)cc(C)c1Oc1cc(Nc2ccc(C#N)cc2)c(N)cc1N ; strain: RF ; read by: p24 / ELISA ; result: 73.3 µM
Nc1cccc(CN2C(=O)N(Cc3cccc(N)c3)[C@H](Cc3ccccc3)[C@H](O)[C@@H](O)[C@H]2Cc2ccccc2)c1 ; strain: RF ; result: <0.12 µM
Cc1cn([C@H]2C[C@H](N=[N+]=[N-])[C@@H](COC(=O)C(=O)O)O2)c(=O)[nH]c1=O ; strain: IIIB ; read by: p24 ; result: 0.03 µM
Cc1cn([C@H]2C[C@H](N=[N+]=[N-])[C@@H](CO)O2)c(=O)[nH]c1=O ; strain: NL4-3 ; read by: p24 ; result: 0.006 µM
COc1ccnc2[nH]cc(C(=O)C(=O)N3CCN(C(=O)c4ccccc4)C[C@H]3C)c12 ; read by: p24 / ELISA ; result: 0.0025 µM
C[C@@H]1O[C@@H]2OCCC[C@@H]2[C@@H]1OC(=O)N[C@@H](Cc1ccccc1)[C@H](O)CN1C[C@H]2CCCC[C@H]2C[C@H]1C(=O)NC(C)(C)C ; strain: LAI ; read by: cytopathic effect / MTT ; result: 0.006 µM
Cc1ccnc2c1NC(=O)c1cccnc1N2C1CC1 ; strain: A17-(RT-K103N Y181C) NNRTI-resistant ; changes: RT-K103N Y181C ; read by: cytopathic effect ; result: 3 µM
CC(C)c1nc(CN(C)C(=O)N[C@H](C(=O)N[C@@H](Cc2ccccc2)C[C@H](O)[C@H](Cc2ccccc2)NC(=O)OCc2cncs2)C(C)C)cs1 ; strain: LAI Laboratory isolate ; read by: cytopathic effect / MTT ; result: 0.041 µM
O=c1cc(-c2ccc(O)c(O)c2)oc2cc(O[C@@H]3O[C@H](CO)[C@@H](O)[C@H](O)[C@H]3OS(=O)(=O)O)cc(O)c12 ; read by: p24 ; result: 27 µM
O=C1N(Cc2ccc3[nH]c(=O)oc3c2)[C@H](Cc2ccccc2)[C@H](O)[C@@H](O)[C@@H](Cc2ccccc2)N1Cc1ccc2[nH]c(=O)oc2c1 ; strain: RF ; result: <0.04 µM
Cc1ccc(S(=O)(=O)N(CC(C)C)C[C@@H](O)[C@H](Cc2ccccc2)NC(=O)O[C@H]2CO[C@H]3OCC[C@H]32)cc1 ; strain: IIIB ; changes: 8374-P62 GS-8374-resistant ; read by: ATP ; result: 0.0138 µM
O=C(Nc1nc2ccccc2[nH]1)c1cccc(CN2C(=O)N(CC3CC3)[C@H](Cc3ccccc3)[C@H](O)[C@@H](O)[C@H]2Cc2ccccc2)c1 ; strain: RF ; result: <0.017 µM
Nc1ccn([C@@H]2CS[C@H](CO)O2)c(=O)n1 ; strain: LAI Laboratory isolate ; read by: cytopathic effect / MTT ; result: 0.66 µM
CC(C)CN(C[C@@H](O)[C@H](Cc1ccccc1)NC(=O)O[C@@H]1[C@@H]2CCCO[C@@H]2O[C@H]1C)S(=O)(=O)c1ccc(N)cc1 ; strain: LAI ; read by: cytopathic effect / MTT ; result: 0.026 µM
Nc1nc(=O)n([C@@H]2CS[C@H](CO)O2)cc1F ; strain: LAI (RT-K65R Q151M) Recombinant ; read by: cytopathic effect / XTT ; result: >20 µM
O=C(Nc1nccs1)c1cccc(CN2C(=O)N(Cc3ccccc3)[C@H](Cc3ccccc3)[C@H](O)[C@@H](O)[C@H]2Cc2ccccc2)c1 ; strain: RF ; result: <0.074 µM
CCCCCCCCCCCCCCCCCCOC[C@H](COP(=O)(O)C(=O)O)OCCCC ; strain: LAI ; read by: p24 ; result: 0.69 µM
Cc1cn([C@H]2C[C@H](N=[N+]=[N-])[C@@H](CO)O2)c(=O)[nH]c1=O ; strain: UC781-resistant (RT K103N Y181C) A17 ; changes: RT-K103N Y181C ; read by: p24 ; result: 0.03309 µg/mL
Cc1c(O)cccc1C(=O)N[C@@H](CSc1ccccc1)[C@H](O)CN1C[C@H]2CCCC[C@H]2C[C@H]1C(=O)NC(C)(C)C ; strain: LAI Laboratory isolate ; read by: cytopathic effect / MTT ; result: 0.005 µM
Cc1cn([C@H]2C[C@H](N=[N+]=[N-])[C@@H](CO)O2)c(=O)[nH]c1=O ; strain: AZT-resistant (RT D67N K70R T215F K219Q) ; changes: RT-D67N K70N T215F K219Q ; read by: p24 ; result: 0.36 µM
CC[C@H](C)[C@H](NC(=O)C(=O)OC[C@H]1O[C@@H](n2cc(C)c(=O)[nH]c2=O)C[C@@H]1N=[N+]=[N-])C(=O)O ; strain: IIIB ; read by: p24 ; result: 0.3 µM
O=C1Cc2cc(CN3C(=O)N(Cc4ccc5c(c4)CC(=O)N5)[C@H](Cc4ccccc4)[C@H](O)[C@@H](O)[C@H]3Cc3ccccc3)ccc2N1 ; strain: RF ; result: <0.37 µM
O=C(/C=C/C=C/c1ccccc1)[Se]c1ccccc1 ; strain: LAI ; read by: MTT ; result: 2.9 µM
Nc1nc(Cl)nc2c1ncn2[C@H]1CC[C@@H](CO)O1 ; strain: IIIB ; read by: cytopathic effect / trypan blue ; result: >2 µM

A second listing of 5 rows from above:

| SMILES | strain | changes | read by | result |
|---|---|---|---|---|
| Nc1nc(=O)n([C@@H]2CS[C@H](CO)O2)cc1F | LAI (RT-K65R Q151M) Recombinant |  | cytopathic effect / XTT | >20 µM |
| O=C(/C=C/C=C/c1ccc([N+](=O)[O-])cc1)[Se]c1ccccc1 | LAI |  | MTT | 6.7 µM |
| O=C(Nc1nc2ccccc2[nH]1)c1cccc(CN2C(=O)N(CC3CC3)[C@H](Cc3ccccc3)[C@H](O)[C@@H](O)[C@H]2Cc2ccccc2)c1 | RF |  |  | <0.017 µM |
| O=C1Cc2cc(CN3C(=O)N(Cc4ccc5c(c4)CC(=O)N5)[C@H](Cc4ccccc4)[C@H](O)[C@@H](O)[C@H]3Cc3ccccc3)ccc2N1 | RF |  |  | <0.37 µM |
| COC(=O)N[C@H](C(=O)N[C@@H](Cc1ccccc1)[C@@H](O)CN(Cc1ccc(-c2ccccn2)cc1)NC(=O)[C@@H](NC(=O)OC)C(C)(C)C)C(C)(C)C | MN |  |  | <0.003 µM |